Source: article PMC9965906, “Discovery and Development Strategies for SARS-CoV-2 NSP3 Macrodomain Inhibitors” (Pathogens, 2023)
Some compounds may have been tested in ways that are not shown here.

Target: SARS-CoV-2 NSP3 Mac1 (Severe acute respiratory syndrome coronavirus 2, UniProt P0DTD1)
Conditions: FDA-approved compound library primary screen, single shot

Sodium nitroprusside
NSP3 Mac1 inhibition at 50 µM (%): 46.7%
